Test [1] deals with T1, Tyrosine-protein phosphatase non-receptor type 7 (Homo sapiens) (UniProt P35236).
T1 sequence (whole entry): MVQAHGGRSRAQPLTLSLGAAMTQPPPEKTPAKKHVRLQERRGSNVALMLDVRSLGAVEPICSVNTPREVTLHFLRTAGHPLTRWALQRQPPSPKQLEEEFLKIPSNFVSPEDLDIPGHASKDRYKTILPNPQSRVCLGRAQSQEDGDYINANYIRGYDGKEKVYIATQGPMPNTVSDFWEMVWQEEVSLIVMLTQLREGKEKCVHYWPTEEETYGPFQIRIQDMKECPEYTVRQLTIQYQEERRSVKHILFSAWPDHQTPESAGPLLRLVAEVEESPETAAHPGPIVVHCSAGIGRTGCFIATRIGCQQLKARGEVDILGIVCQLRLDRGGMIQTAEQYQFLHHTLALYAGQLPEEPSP
Description: Binding affinity to His6-tagged human wild-type HePTP catalytic domain overexpressed in Escherichia coli BL21(DE3) cells at 25 uM after 90 mins by SDS-PAGE analysis.

Test [2] addresses T1, Tyrosine-protein phosphatase non-receptor type 7 (Homo sapiens). The experiment in a line: Inhibition of His6-tagged wild type human HePTP catalytic domain overexpressed in Escherichia coli BL21(DE3) cells at 25 uM using pNPP as substrate incubated for 90 mins by quenched phosphatase activity assay.
For test [3], the system named is T2, Tyrosine-protein phosphatase non-receptor type 7 (Homo sapiens), P35236 [P171C,V205C].
T2 sequence (whole entry): T1 sequence (whole entry) with P171C, V205C
The experiment in a line: Binding affinity to allosterically sensitized mutant form of His6-tagged human HePTP catalytic domain overexpressed in Escherichia coli BL21(DE3) cells at 25 uM after 90 mins by SDS-PAGE analysis.

The subject of test [4] is Tyrosine-protein phosphatase non-receptor type 7 (Homo sapiens), P35236 [UNDEFINED MUTATION]. The experiment in a line: Inhibition of Inhibition of allosterically sensitized mutant form of His6-tagged […] human HePTP catalytic domain overexpressed in Escherichia coli BL21(DE3) cells at 25 uM using pNPP as substrate incubated for 90 mins by quenched phosphatase activity assay.

From ChEMBL document CHEMBL4118135, “Optimized allosteric inhibition of engineered protein tyrosine phosphatases with an expanded palette of biarsenical small molecules” (Bioorg Med Chem, 2018) come the findings set out here.

Substitutions are numbered along the chain they refer to. Active and inactive are the calls of the source. No cut-off for these calls is given here.

`O=C(O)c1c(Cl)c(Cl)c(Cl)c(Cl)c1-c1c2ccc(=O)c([As]3SCCS3)c-2oc2c([As]3SCCS3)c(O)ccc12`: the outcome in test [1] was inactive. In test [2], the inhibition (commonly how much of the control response was suppressed) is “inactive”. Further, in test [3], the outcome was Active. The inhibition in test [4] worked out at 60%.
